Columns and labels:
Assay in all cases: cell-based or functional assay
[1] = biological target: haemagglutinin of A/Victoria/3/75 (H3N2), on PR8 recombinant virus (Influenza A virus A/Victoria/3/75 (H3N2)), P03435
[2] = biological target: haemagglutinin of A/England/195/09 (H1N1), on PR8 recombinant virus (Influenza A virus A/England/195/09 (H1N1))
[3] = biological target: haemagglutinin of influenza virus A/WSN/33 (H1N1) (Influenza A virus A/WSN/33 (H1N1)), P03454
[4] = biological target: haemagglutinin of A/Vietnam/1194/04 (H5N1), on PR8 recombinant virus (Influenza A virus A/Vietnam/1194/04 (H5N1))
[5] = biological target: H3N2 viruses (haemagglutinin of H3N2 influenza virus, strains not given)
[6] = biological target: H1N1 viruses (haemagglutinin of H1N1 influenza virus, strains not given)

In the case of RRKKWLVFFVIYFFR (modifications not checked) [FP4 peptide], the knockdown in plaque reduction assay at 10 µg of peptide [1] is reported as 97%, the knockdown in plaque reduction assay at 10 µg of peptide [2] is reported as 90% and the knockdown in plaque reduction assay at 10 µg of peptide [3] is reported as 100%.

WLVFFVIAYFAR (modifications not checked) [FP2 peptide (…)] gave a knockdown in plaque reduction assay at 10 µg of peptide [4] of 65%, a knockdown in plaque reduction assay at 10 µg of peptide [1] of 75% and a knockdown in plaque reduction assay at 10 µg of peptide [2] of 66%.

WLVFFVIFYFFR (modifications not checked) [FP1-D, D-isomer of FP1] gave an inhibition of virus infection in vitro [5] of 100 nM and an inhibition of virus infection in vitro [6] of 100 nM.

From US20130205416A1
